B1: Platelet factor 4 (protein, UniProt Q9Z126 30-105, looked up)
Platelet factor 4: VTSAGPEESDGDLSCVCVKTISSGIHLKHITSLEVIKAGRHCAVPQLIATLKNGRKICLDRQAPLYKKVIKKILES
B2: Secreted phosphoprotein 24 (protein, UniProt Q8K1I3 24-203, looked up)
Secreted phosphoprotein 24: FPVYDYDPSSLQEALSASVAKVNSQSLSPYLFRATRSSLKRVNVLDEDTLVMNLEFSVQETTCLRDSGDPSTCAFQRGYSVPTAACRSTVQMSKGQVKDVWAHCRWASSSESNSSEEMMFGDMARSHRRRNDYLLGFLSDESRSEQFRDRSLEIMRRGQPPAHRRFLNLHRRARVNSGFE
B3: Macrophage colony-stimulating factor 1 receptor (protein, UniProt P09581 20-977, looked up)
Macrophage colony-stimulating …: APVIEPSGPELVVEPGETVTLRCVSNGSVEWDGPISPYWTLDPESPGSTLTTRNATFKNTGTYRCTELEDPMAGSTTIHLYVKDPAHSWNLLAQEVTVVEGQEAVLPCLITDPALKDSVSLMREGGRQVLRKTVYFFSPWRGFIIRKAKVLDSNTYVCKTMVNGRESTSTGIWLKVNRVHPEPPQIKLEPSKLVRIRGEAAQIVCSATNAEVGFNVILKRGDTKLEIPLNSDFQDNYYKKVRALSLNAVDFQDAGIYSCVASNDVGTRTATMNFQVVESAYLNLTSEQSLLQEVSVGDSLILTVHADAYPSIQHYNWTYLGPFFEDQRKLEFITQRAIYRYTFKLFLNRVKASEAGQYFLMAQNKAGWNNLTFELTLRYPPEVSVTWMPVNGSDVLFCDVSGYPQPSVTWMECRGHTDRCDEAQALQVWNDTHPEVLSQKPFDKVIIQSQLPIGTLKHNMTYFCKTHNSVGNSSQYFRAVSLGQSKQLPDESLFTPVVVACMSVMSLLVLLLLLLLYKYKQKPKYQVRWKIIERYEGNSYTFIDPTQLPYNEKWEFPRNNLQFGKTLGAGAFGKVVEATAFGLGKEDAVLKVAVKMLKSTAHADEKEALMSELKIMSHLGQHENIVNLLGACTHGGPVLVITEYCCYGDLLNFLRRKAEAMLGPSLSPGQDSEGDSSYKNIHLEKKYVRRDSGFSSQGVDTYVEMRPVSTSSSDSFFKQDLDKEASRPLELWDLLHFSSQVAQGMAFLASKNCIHRDVAARNVLLTSGHVAKIGDFGLARDIMNDSNYVVKGNARLPVKWMAPESIFDCVYTVQSDVWSYGILLWEIFSLGLNPYPGILVNNKFYKLVKDGYQMAQPVFAPKNIYSIMQSCWDLEPTRRPTFQQICFLLQEQARLERRDQDYANLPSSGGSSGSDSGGGSSGGSSSEPEEESSSEHLACCEPGDIAQPLLQPNNYQFC
B4: Complement factor D (protein, UniProt P03953 26-259, looked up)
Complement factor D: ILGGQEAAAHARPYMASVQVNGTHVCGGTLLDEQWVLSAAHCMDGVTDDDSVQVLLGAHSLSAPEPYKRWYDVQSVVPHPGSRPDSLEDDLILFKLSQNASLGPHVRPLPLQYEDKEVEPGTLCDVAGWGVVTHAGRRPDVLHQLRVSIMNRTTCNLRTYHDGVVTINMMCAESNRRDTCRGDSGSPLVCGDAVEGVVTWGSRVCGNGKKPGVYTRVSSYRMWIENITNGNMTS
B5: Corticosteroid-binding globulin (protein, UniProt Q06770 23-397, looked up)
Corticosteroid-binding …: VTDEDSSSHRDLAPTNVDFAFNLYKRLVALNSDKNTLISPVSISMALAMLSLSTRGSTQYLENLGFNMSKMSEAEIHQGFQYLNSLLQQSDTGLEMNMGNVMFLLQNLKLKDSFLADTKHYYESEALTIPSKDWTKAGEQINNHVKNKTQGKIEHVVSDLDSSATLILINYIFLKGIWKLPFSPENTREEDFYVNETSTVKVPMMVQSGNISYFRDSAIPCQMVQMNYVGNGTTFIILPDQGQMDTVVAALNRDTIDRWGKLMIPRQMNLYIPKFSMSDTYDLQDVLADVGIKDLFTNQSDFADTTKDTPLTLTVLHKAMLQLDEGNVLPAATNGPPVHLPSESFTLKYNRPFIFLAFDKYTWSSLMMSQVMNPA
B6: Cluster of Alpha-amylase 1 (protein, UniProt P00687 16-511, looked up)
Alpha-amylase 1: QYDPHTQYGRTAIVHLFEWRWVDIAKECERYLAPNGFAGVQVSPPNENIVVHSPSRPWWERYQPISYKICSRSGNEDEFRDMVNRCNNVGVRIYVDAVINHMCGVGAQAGQSSTCGSYFNPNNRDFPGVPYSGFDFNDGKCRTASGGIENYQDAAQVRDCRLSGLLDLALEKDYVRTKVADYMNHLIDIGVAGFRLDASKHMWPGDIKAILDKLHNLNTKWFSQGSRPFIFQEVIDLGGEAVSSNEYFGNGRVTEFKYGAKLGKVMRKWDGEKMSYLKNWGEGWGLMPSDRALVFVDNHDNQRGHGAGGASILTFWDARLYKMAVGFMLAHPYGFTRVMSSYYWPRNFQNGKDVNDWVGPPNNNGKTKEVSINPDSTCGNDWICEHRWRQIRNMVAFRNVVNGQPFANWWDNDSNQVAFGRGNKGFIVFNNDDWALSETLQTGLPAGTYCDVISGDKVDGNCTGIKVYVGNDGKAHFSISNSAEDPFIAIHAESKI
modifications: protein cluster
B7: Alpha-amylase 1 (protein, UniProt P00687 16-511, looked up)
Alpha-amylase 1: B6 Alpha-amylase 1
B8: Kininogen-1 (protein, UniProt O08677 21-661, looked up)
Kininogen-1: EEAQEIDCNDEAVFQAVDFSLKQFNPGVKSGNQYMLHRVIEGTKTDGSPTFYSFKYLIKEGNCSAQSGLAWQDCDFKDAEEAATGECTATVGKRENEFFIVTQTCKIAPSKAPILKAYFPCIGCVHAISTDSPDLEPVLKHSIEHFNNNTDHSHLFTLRKVKSAHRQVVAGLNFDITYTIVQTNCSKERFPSLHGDCVALPNGDDGECRGNLFMDINNKIANFSQSCTLYSGDDLVEALPKPCPGCPRDIPVDSPELKEVLGHSIAQLNAENDHPFYYKIDTVKKATSQVVAGTKYVIEFIARETKCSKESNTELAEDCEIKHLGQSLDCNANVYMRPWENKVVPTVKCQALDMTEMARRPPGFSPFRSVTVQETKEGRTVSPPYIAREQEERDAETEQGPTHGHGWLHEKQIKANKNHRGHKHGHDHGHWSPRRHGLGHGHQKPHGLGHGHQLKLDYLRHQREDGDDHTHTVGHGHGHGHGHGHGHGHGHGHGHGHGHGHGHGKHTNKDKNSVKQTTQRTESLASSSEYSTTSTQMQGRTEGPTLTPPRAQPTVTSSGFQDSDFIEDVVATTPPYDTGAHDDLIPDIHVQPDSLSFKLISDFPEATSPKCPGRPWKPASWEDPNTETTEFSDFDLLDALS
B9: Platelet-activating factor acetylhydrolase (protein, UniProt Q60963 22-440, looked up)
Platelet-activating factor …: FHWQDTSSFDFRPSVMFHKLQSVMSAAGSGHSKIPKGNGSYPVGCTDLMFGYGNESVFVRLYYPAQDQGRLDTVWIPNKEYFLGLSIFLGTPSIVGNILHLLYGSLTTPASWNSPLRTGEKYPLIVFSHGLGAFRTIYSAIGIGLASNGFIVATVEHRDRSASATYFFEDQVAAKVENRSWLYLRKVKQEESESVRKEQVQQRAIECSRALSAILDIEHGDPKENVLGSAFDMKQLKDAIDETKIALMGHSFGGATVLQALSEDQRFRCGVALDPWMYPVNEELYSRTLQPLLFINSAKFQTPKDIAKMKKFYQPDKERKMITIKGSVHQNFDDFTFVTGKIIGNKLTLKGEIDSRVAIDLTNKASMAFLQKHLGLQKDFDQWDPLVEGDDENLIPGSPFDAVTQVPAQQHSPGSQTQN
B10: Selenoprotein P (protein, UniProt P70274 20-380, looked up)
Selenoprotein P: ESQGQSSACYKAPEWYIGDQNPMLNSEGKVTVVALLQASUYLCLLQASRLEDLRIKLESQGYFNISYIVVNHQGSPSQLKHSHLKKQVSEHIAVYRQEEDGIDVWTLLNGNKDDFLIYDRCGRLVYHLGLPYSFLTFPYVEEAIKIAYCEERCGNCNLTSLEDEDFCKTVTSATANKTAEPSEAHSHHKHHNKHGQEHLGSSKPSENQQPGPSETTLPPSGLHHHHRHRGQHRQGHLESUDTTASEGLHLSLAQRKLURRGCINQLLCKLSKESEAAPSSCCCHCRHLIFEKSGSAIAUQCAENLPSLCSUQGLFAEEKVTESCQCRSPPAAUQNQPMNPMEANPNUSUDNQTRKUKUHSN
B11: 14-3-3 protein zeta/delta (protein, UniProt P63101 1-245, looked up)
14-3-3 protein zeta/delta: MDKNELVQKAKLAEQAERYDDMAACMKSVTEQGAELSNEERNLLSVAYKNVVGARRSSWRVVSSIEQKTEGAEKKQQMAREYREKIETELRDICNDVLSLLEKFLIPNASQPESKVFYLKMKGDYYRYLAEVAAGDDKKGIVDQSQQAYQEAFEISKKEMQPTHPIRLGLALNFSVFYYEILNSPEKACSLAKTAFDEAIAELDTLSEESYKDSTLIMQLLRDNLTLWTSDTQGDEAEAGEGGEN
B12: Serine protease inhibitor A3K (protein, UniProt P07759 22-418, looked up)
Serine protease inhibitor A3K: FPDGTKEMDIVFHEHQDNGTQDDSLTLASVNTDFAFSLYKKLALKNPDTNIVFSPLSISAALALVSLGAKGKTMEEILEGLKFNLTETPEADIHQGFGNLLQSLSQPEDQDQINIGNAMFIEKDLQILAEFHEKTRALYQTEAFTADFQQPTEAKNLINDYVSNQTQGMIKELISELDERTLMVLVNYIYFKGKWKISFDPQDTFESEFYLDEKRSVKVPMMKMKLLTTRHFRDEELSCSVLELKYTGNASALLILPDQGRMQQVEASLQPETLRKWRKTLFPSQIEELNLPKFSIASNYRLEEDVLPEMGIKEVFTEQADLSGITETKKLSVSQVVHKAVLDVAETGTEAAAATGVIGGIRKAILPAVHFNRPFLFVIYHTSAQSILFMAKVNNPK

Test system: coronal proteins on NPs
Parameters: species or system mouse
Details: for V5 Sera_Nanoparticles Quantitative Value (Normalized Total Spectra): HBPE-NPs incubated 1 h with IAV day 5 (V5) mouse sera, 20:1 NP:sera, centrifuged and washed; for V5 Sera Alone (Control) Quantitative Value (Normalized Total Spectra): IAV day 5 (V5) mouse sera alone, no NPs (sera-only control)

Row | Molecule | V5 Sera_Nanoparticles Quantitative Value (Normalized Total Spectra) | V5 Sera Alone (Control) Quantitative Value (Normalized Total Spectra)
1 | B1 | 2.1758 | 2.7757
2 | B2 | 2.1758 | 1.8505
3 | B3 | 2.1758 | 1.8505
4 | B4 | 2.1758 | 2.7757
5 | B5 | 2.1758 | 1.8505
6 | B6 | 2.1758 | 0.9252
7 | B7 | 2.1758 | 0.9252
8 | B8 | 56.572 | 44.411
9 | B9 | 2.1758 | 7.4018
10 | B10 | 2.1758 | 2.7757
11 | B11 | 2.1758 | 2.7757
12 | B12 | 56.572 | 53.663

Reference: patent publication US20240122867A1, “CORONAL PROTEIN-COATED NANOPARTICLES AND USES THEREOF” (UNIVERSITY OF CENTRAL FLORIDA RESEARCH FOUNDATION, INC., priority 2021, published 2024)
